Structures can show the parent of a compound that is named as a salt.
System: SARS-CoV-2
Test: microbe, parasite or virus in culture
Type: cell-based
Details: Severe acute respiratory syndrome coronavirus 2, 120 h

SMILES | IC50 [µM]
CC(=O)[C@]1(O)Cc2c(O)c3c(c(O)c2[C@@H](O[C@H]2C[C@H](N)[C@H](O)[C@H](C)O2)C1)C(=O)c1ccccc1C3=O [Compound 38, (7S,9S)-9-Acetyl-7-[(3-amino-2,3,6-trideoxy-alpha-L-lyxo-hexopyranosyl)oxy]-7,8,9,10-tetrahydro-6,9,11-trihydroxy-5,12-naphthacenedione hydrochloride] | 58.9
O=C(O)Cc1cccc(OCCCN(Cc2cccc(C(F)(F)F)c2Cl)CC(c2ccccc2)c2ccccc2)c1 [Compound 71, 2-[3-[3-[N-[2-Chloro-3-(trifluoromethyl)benzyl]-N-(2,2-diphenylethyl)amino]propoxy]phenyl]acetic acid] | 27.7

— patent EP3964206A1, “COMPOUNDS FOR THE TREATMENT OF COVID-19” (priority 2020, dated 2022)
